Anti-infective test results gathered from many reports (values: NIAID ChemDB through PubChem).

All rows: tests in culture

MIC50, MIC90 and the like: level of inhibition, or share of isolates inhibited.

CCc1nc2ccc(Cl)cn2c1C(=O)NCc1ccc(-c2cccc(OC(F)(F)F)c2)c(F)c1 ; measure: inhibition ; tested at: 0.0023 µM ; organism: Mycobacterium avium ; read by: fluorescence ; value: 85%
O=C(NNC(=O)c1ccncc1)Nc1c(Cl)cc(Cl)cc1Cl ; measure: MIC100 ; strain: My 235/80 ; organism: Mycobacterium kansasii ; setting: 14 d ; read by: broth dilution ; value: >125 µM
CO[C@@]1(NC(=O)CCCC(N)C(=O)O)C(=O)N2C(C(=O)O)=C(COC(N)=O)CSC21 ; measure: MIC ; strain: 1030-8 ; organism: Mycobacterium fortuitum ; value: >100 µg/mL
CC[C@H]1OC(=O)[C@H](C)[C@@H](OC2C[C@@](C)(OC)[C@@H](OC(=O)CCCCc3ccccc3)[C@H](C)O2)[C@H](C)[C@@H](O[C@@H]2O[C@H](C)C[C@H](N(C)C)[C@H]2O)C(C)(O)C[C@@H](C)/C(=N\OCCCOc2ccccc2)[C@H](C)[C@@H](O)[C@]1(C)O ; measure: MIC ; strain: 20039 (clarithromycin-susceptible) ; organism: Mycobacterium avium complex ; value: 0.78 µg/mL
CO[C@H]1/C=C/O[C@@]2(C)Oc3c(C)c(O)c4c(O)c(c5c(c4c3C2=O)NC2(CCN(CC(C)C)CC2)N=5)=NC(=O)/C(C)=C\C=C\[C@H](C)[C@H](O)[C@@H](C)[C@@H](O)[C@@H](C)[C@H](OC(C)=O)[C@@H]1C ; measure: MIC ; strain: 16-Feb ; organism: Mycobacterium avium intracellulare ; value: 0.25 µg/mL
CC(C)N=C(N)/N=C(\N)NOCCCOc1cc(Cl)c(Cl)cc1Cl ; measure: MIC ; strain: 3028 ; organism: Mycobacterium avium complex ; value: 32 µg/mL
CCCCCCCCC(=O)O[C@H]1[C@H](C)[C@@H](O[C@@H]2O[C@H](C)C[C@H](N(C)C)[C@H]2O)C(C)(O)C[C@@H](C)/C(=N\OCCCOc2ccccc2)[C@H](C)[C@@H](O)[C@](C)(O)[C@@H](CC)OC(=O)[C@@H]1C ; measure: MIC ; strain: 20096 (clarithromycin-resistant) ; organism: Mycobacterium avium complex ; value: 12.5 µg/mL
Fc1cc(Br)ccc1Nc1nnc(-c2ccncc2)o1 ; measure: MIC100 ; strain: My 235/80 ; organism: Mycobacterium kansasii ; setting: 21 d ; read by: broth dilution ; value: >125 µM
CC[C@H]1OC(=O)[C@H](C)[C@@H](OC2C[C@@](C)(OC)[C@@H](O)[C@H](C)O2)[C@H](C)[C@@H](O[C@@H]2O[C@H](C)C[C@H](N(C)C)[C@H]2O)C(C)(O)C[C@@H](C)/C(=N\OCCc2cccs2)[C@H](C)[C@@H](O)[C@]1(C)O ; measure: MIC ; strain: 20092 (clarithromycin-resistant) ; organism: Mycobacterium avium complex ; value: 50 µg/mL
Cc1ccn2c(C(=O)NCc3ccc(C4CCN(c5ccc(OC(F)(F)F)cc5)CC4)c(F)c3)c(C)nc2c1 ; measure: inhibition ; tested at: 0.017 µM ; organism: Mycobacterium avium ; read by: fluorescence ; value: 85%
CO[C@@]1(NC(=O)Cc2ccccc2)C(=O)N2C(C(=O)[O-])=C(CSc3nnc(C)s3)CSC21 ; measure: MIC ; strain: 1263 ; organism: Mycobacterium fortuitum ; value: 50 µg/mL
CC[C@H]1OC(=O)[C@H](C)[C@@H](O[C@H]2C[C@@](C)(OC)[C@@H](OC(C)=O)[C@H](C)O2)[C@H](C)[C@@H](O[C@@H]2O[C@H](C)C[C@H](N(C)C)[C@H]2O)C(C)(O)C[C@@H](C)/C(=N\OCCCCOc2ccccc2)[C@H](C)[C@@H](O)[C@]1(C)O ; measure: MIC ; strain: 20092 (clarithromycin-resistant) ; organism: Mycobacterium avium complex ; value: 3.13 µg/mL
CCCCCCCCc1ccc(NC(=O)NNC(=O)c2ccncc2)cc1 ; measure: MIC100 ; strain: My 235/80 ; organism: Mycobacterium kansasii ; setting: 7 d ; read by: broth dilution ; value: 250 µM
Cc1nc2cc(F)ccn2c1C(=O)NCc1ccc(N2CCC(c3ccc(OC(F)(F)F)cc3)CC2)c(F)c1 ; measure: inhibition ; tested at: 0.016 µM ; organism: Mycobacterium avium ; read by: fluorescence ; value: 85%
CO[C@@]1(NC(=O)Cc2ccccc2)C(=O)N2C(C(=O)O)=C(COC(C)=O)CSC21 ; measure: MIC ; strain: 914-8 ; organism: Mycobacterium fortuitum ; value: 6.25 µg/mL
CC[C@H]1OC(=O)[C@H](C)[C@@H](O[C@H]2C[C@@](C)(OC)[C@@H](OC(C)=O)[C@H](C)O2)[C@H](C)[C@@H](O[C@@H]2O[C@H](C)C[C@H](N(C)C)[C@H]2O)C(C)(O)C[C@@H](C)/C(=N\OCCN(C)c2ccccc2)[C@H](C)[C@@H](O)[C@]1(C)O ; measure: MIC ; strain: 20039 (clarithromycin-susceptible) ; organism: Mycobacterium avium complex ; value: 1.56 µg/mL
Cc1cc2nc(C)c(C(=O)NCc3ccc(C4CCN(c5ccc(OC(F)(F)F)cc5)CC4)c(F)c3)n2cc1Cl ; measure: inhibition ; tested at: 0.057 µM ; organism: Mycobacterium avium ; read by: fluorescence ; value: 85%
CC[C@H]1OC(=O)[C@H](C)[C@@H](O[C@H]2C[C@@](C)(OC)[C@@H](OC(C)=O)[C@H](C)O2)[C@H](C)[C@@H](O[C@@H]2O[C@H](C)C[C@H](N(C)C)[C@H]2OC(=O)NNCCCc2ccccc2)C(C)(O)C[C@@H](C)/C(=N\OCCCC2CCCCC2)[C@H](C)[C@@H](O)[C@]1(C)O ; measure: MIC ; strain: 20096 (clarithromycin-resistant) ; organism: Mycobacterium avium complex ; value: 1.56 µg/mL
CCCCCCCc1ccc(NC(=O)NNC(=O)c2ccncc2)cc1 ; measure: MIC100 ; strain: My 235/80 ; organism: Mycobacterium kansasii ; setting: 14 d ; read by: broth dilution ; value: 125 µM
COc1ccn2nc(C)c(C(=O)NCc3ccc(N4CCN(c5ccc(OC(F)(F)F)cc5)[C@H]5CCCC[C@@H]54)c(F)c3)c2c1.Cl ; measure: inhibition ; tested at: 0.78 µM ; organism: Mycobacterium avium ; read by: fluorescence ; value: 85%
CO[C@@]1(NC(=O)CSCC#N)C(=O)N2C(C(=O)O)=C(CSc3nnnn3C)CS[C@@H]21 ; measure: MIC ; strain: 1260 ; organism: Mycobacterium fortuitum ; value: 3.12 µg/mL
CCc1nc2ccc(Cl)cn2c1C(=O)NCc1ccc(C2CCN(c3ccc(OC(F)(F)F)cc3)CC2)c(Cl)c1.Cl ; measure: inhibition ; tested at: 0.06 µM ; organism: Mycobacterium avium ; read by: fluorescence ; value: 85%
O=C(NNC(=O)c1ccncc1)Nc1cc(Cl)cc(Cl)c1 ; measure: MIC100 ; strain: My 235/80 ; organism: Mycobacterium kansasii ; setting: 21 d ; read by: broth dilution ; value: 125 µM
Cc1nc2ccc(Cl)cn2c1C(=O)NCc1ccc(N2CCC(c3ccc(OC(F)(F)F)cc3)CC2)c(F)c1.Cl ; measure: inhibition ; tested at: 0.012 µM ; organism: Mycobacterium avium ; read by: fluorescence ; value: 85%
CC[C@H]1OC(=O)[C@H](C)[C@@H](OC(=O)C(C)C)[C@H](C)[C@@H](O[C@@H]2O[C@H](C)C[C@H](N(C)C)[C@H]2O)C(C)(O)C[C@@H](C)/C(=N\OCCCOc2ccccc2)[C@H](C)[C@@H](O)[C@]1(C)O ; measure: MIC ; strain: 20096 (clarithromycin-resistant) ; organism: Mycobacterium avium complex ; value: 12.5 µg/mL
CO[C@@]1(NC(=O)C2SC(=C(C(N)=O)C(=O)[O-])S2)C(=O)N2C(C(=O)[O-])=C(CSc3nnnn3C)CS[C@@H]21 ; measure: MIC ; strain: 4-May ; organism: Mycobacterium fortuitum ; value: 25 µg/mL
O=C(NNC(=O)c1ccncc1)Nc1ccc(Cl)c(C(F)(F)F)c1 ; measure: MIC100 ; strain: My 6509/96 ; organism: Mycobacterium kansasii ; setting: 14 d ; read by: broth dilution ; value: 125 µM
COc1ccn2c(C(=O)NCc3ccc(N4CCN(c5ccc(OC(F)(F)F)cc5)[C@@H](C)C4)c(F)c3)c(C)nc2c1 ; measure: inhibition ; tested at: 0.37 µM ; organism: Mycobacterium avium ; read by: fluorescence ; value: 85%

Percent inhibition refers to the dose given; in toxicity tests it is the harm to the cells. Rows are shuffled and stem from different studies.